Compound potency records, mixed from different reports. Data source: NIAID ChemDB in PubChem.

Shared fields: growth or infection tests; agent: Mycobacterium tuberculosis

A number after MIC or MFC names an inhibition level or a share of isolates.

structure	endpoint	mutations	dose	conditions	strain or isolate	method	cells	value
FC(F)(F)c1ccc(Oc2ccc(Nc3ccnc4ccnn34)cc2)cc1	MIC50	-	-	-	H37Rv	luminescence	-	>10 µM
CC(=O)NCC1CN(c2ccc(C(C)=O)cc2)C(=O)O1	MIC	-	-	-	H37RV (RIF-R)	-	-	0.97 µg/mL
Cc1cn2c(C(=O)NCc3ccc(N4CCC(c5ccc(OC(F)(F)F)cc5)CC4)cc3)c(C)nc2s1	MIC	-	-	-	H37Rv	luminescence	-	1.31 µM
NC(=O)c1cnccn1	EC50	-	-	7 d	Erdman	-	-	<800 µg/mL
Cc1cn2c(C(=O)NCc3ccccc3C(F)(F)F)c(C)nc2s1	MIC	-	-	-	H37Rv	resazurin / fluorescence	-	>1 µM
CC(=O)Oc1cc(S(=O)(=O)Nc2n[nH]c(Nc3ccc(C)cc3)n2)c(S)cc1Cl	MIC bound	-	-	-	H37Rv	BACTEC	-	>12.5 µg/mL
COc1ccc(C(=O)OCC(S)CS)cc1	MIC	-	-	-	H37Rv	-	-	25 µg/mL
Cc1cc(C)n(-c2ccc3nnnn3n2)n1	inhibition	-	12.5 µg/mL	-	H37Rv	BACTEC	-	0%
CCCCS(=O)(=O)Nc1ccc2[nH]c(C(=O)NCc3ccccc3F)c(C)c2c1	MIC90	-	-	-	H37Rv	resazurin	-	0.78 µM
FS(F)(F)(F)(F)c1ccc(CCNc2ncnc3ccccc23)cc1	MIC50	-	-	-	H37Rv	luminescence	-	>20 µM
CO[C@H]1/C=C/O[C@@]2(C)Oc3c(C)c(O)c4c(O)c(c(/C=N/N5CCN(C)CC5)c(O)c4c3C2=O)NC(=O)/C(C)=C\C=C\[C@H](C)[C@H](O)[C@@H](C)[C@@H](O)[C@@H](C)[C@H](OC(C)=O)[C@@H]1C	MIC	-	-	-	H37Rv	-	-	0.04 µg/mL
COc1ccc2oc3cccc(NCCN(C)C)c3c(=O)c2c1	MIC bound	-	-	-	H37Rv	BACTEC	-	>12.5 µg/mL
Fc1cc(Nc2ncnc3ccccc23)ccc1N1CCOCC1	MIC50	-	-	-	H37Rv	luminescence	-	>50 µM
COc1ccc(CC2NC(=O)[C@@H](CCCN)NC(=O)[C@H](CC(N)=O)NC(=O)[C@H](C(C)C)NC(=O)[C@@H](CC(C)C)NC(=O)[C@H](CC(C)C)NC2=O)cc1	MIC100	-	-	-	H37Rv	broth dilution / resazurin	-	>80 µM
CCN1C(C#N)=C(C#N)N=C(c2ccccc2)[C@H]1/C=C/c1ccccc1	MIC	-	-	-	H37Rv	broth dilution / visual reading	-	12.5 µg/mL
CC(=O)SCC1(C)CS1	MIC	-	-	-	H37Rv	-	-	50 µg/mL
CCC(C)C1NC(=O)[C@H](CC(C)C)NC(=O)[C@H](Cc2c[nH]c3ccccc23)NC(=O)[C@@H](CCCN)NC(=O)[C@H](CC(N)=O)NC(=O)[C@H](C(C)C)NC1=O	MIC100	-	-	-	H37Rv	broth dilution / resazurin	-	>80 µM
Cc1cn2c(C(=O)NCc3ccc(N4CCN(c5ccc(C(F)(F)F)cn5)CC4)c(F)c3)c(C)nc2s1	MIC	QcrB7 S182P	-	-	H37Rv	resazurin / fluorescence	-	0.15 µM
CCCCS(=O)(=O)Nc1ccc2[nH]c(C(=O)NC3CC3)c(C)c2c1	MIC90	-	-	-	H37Rv	resazurin	-	3.13 µM
CCCCCCCCCCCCCCCC(=O)SCC1CS1	MIC	-	-	-	H37Rv	-	-	>50 µg/mL
FC(F)(F)c1ccc(Oc2ccc(Nc3ncnc4ccccc34)cc2)cn1	MIC50	-	-	-	H37Rv	luminescence	-	>50 µM
[O-][n+]1c2ccc(I)cc2[n+]([O-])c2c3ccccc3[nH]c21	inhibition	-	6.25 µg/mL	-	H37Rv	resazurin	-	98%
CCN1C(C#N)=C(C#N)N=C(c2ccccc2)[C@@H]1/C=C/c1ccccc1	MIC	-	-	-	H37Rv	broth dilution / visual reading	-	12.5 µg/mL
CC1CCCN(C(=S)S)C1.CC1CCCNC1	MIC	-	-	-	H37Rv	-	VERO	3.1 µg/mL
O=C(Nc1cccc(Cl)c1Cl)N1CCN(S(=O)(=O)c2cccc3cnccc23)CC1	MIC90	Inosine monophosphate dehydrogenase-resistant	-	-	SRMV2.6	resazurin	-	>250 µM
CCC1CCC2CN(/N=C/c3c4c(O)c5c(O)c(C)c6c(c5c3O)C(=O)[C@@](C)(O/C=C/[C@H](OC)[C@@H](C)[C@@H](OC(C)=O)[C@H](C)[C@H](O)[C@H](C)[C@@H](O)[C@@H](C)/C=C/C=C(/C)C(=O)N4)O6)CCN2C1	MIC	-	-	-	H37RV (INH-R)	-	-	0.03 µg/mL
CC(C)=CCC/C(C)=C/CNc1ncnc2ccsc12	MIC50	-	-	-	H37Rv	luminescence	-	>40 µM
O=C(OCC(S)CS)c1ccc(Cl)cc1	MIC	-	-	-	H37Rv	-	-	12.5 µg/mL
Cc1ccc([N+](=O)[O-])cc1Cl	inhibition	-	12.5 µg/mL	-	H37Rv	BACTEC	-	0%
Clc1ccc2c(c1)CCC(Nc1ncnc3ccccc13)C2	MIC50	-	-	-	H37Rv	luminescence	-	>50 µM
CCCCS(=O)(=O)Nc1ccc2[nH]c(C(=O)OCC)c(C)c2c1	MIC90	A119T DG167-resistant	-	-	DRM167 8x2	resazurin	-	>100 µM
CC(=O)SCC(CSC(C)=O)SC(C)=O	MIC	-	-	-	H37Rv	-	-	1.6 µg/mL
CCOc1ccc(NC(=O)OCCN2CCOCC2)cc1	MIC	-	-	-	My 331/88	-	-	1000 µM
CCOC(=O)C(=O)SCC1CS1	MIC	-	-	-	H37Rv	-	-	12.5 µg/mL
C=COC(C)=O.O=C1C=CC(=O)O1	MIC bound	-	-	-	H37Rv	resazurin	-	>6.25 µg/mL
Cc1cn2c(C(=O)NCc3ccc(N4CCOCC4)c(F)c3)c(C)nc2s1	MIC	QcrB6 A317T	-	-	H37Rv	resazurin / fluorescence	-	4.7 µM
CC1COc2c(N3CCN(C)CC3)c(F)cc3c(=O)c(C(=O)O)cn1c23	MIC	-	-	-	3183-5	-	-	0.5 µg/mL
Clc1ccc(CCNc2ncnc3ccccc23)cc1	MIC50	-	-	-	H37Rv	luminescence	-	>10 µM
C=C(C)[C@@H]1CC[C@]2(C(=O)OC)CC[C@]3(C)[C@H](CC[C@@H]4[C@@]5(C)CC[C@H](O)C(C)(C)[C@@H]5CC[C@]43C)[C@@H]12	inhibition	-	12.5 µg/mL	-	H37Rv	BACTEC	-	-13%
Cc1cc2c(S(=O)(=O)N3CCN(C(=O)C4CCCCC4)CC3)cccc2cn1	MIC90	-	-	-	H37Rv	resazurin	-	>100 µM
NN1CCN(N)C(=O)C1=O	MIC bound	-	-	-	H37Rv	BACTEC	-	>12.5 µg/mL
O=C(C1CCCCC1)N1CCN(S(=O)(=O)c2cccc3ccccc23)CC1	MIC90	-	-	-	H37Rv	resazurin	-	>100 µM
FC(F)(F)Oc1ccc(Oc2ccc(Nc3ncnc4ccsc34)cc2)cc1	MIC50	-	-	-	H37Rv	luminescence	-	>20 µM
CC(C)C[C@@H]1NC(=O)[C@H](Cc2c[nH]c3ccccc23)NC(=O)[C@@H](CCCN)NC(=O)[C@H](CC(N)=O)NC(=O)[C@H](C)NC(=O)[C@@H](CC(C)C)NC1=O	MIC100	-	-	-	H37Rv	broth dilution / resazurin	-	>80 µM
NC(=O)c1cnccn1	MIC	-	-	-	H37Rv	broth dilution / visual reading	-	12.5 µg/mL
Cc1cn2c(C(=O)NCc3ccc(C(F)(F)F)cc3)c(C)nc2s1	MIC	QcrB5 M342I	-	-	H37Rv	resazurin / fluorescence	-	0.3 µM
O=S(=O)(c1cccc2cnccc12)N1CCN(C(=S)Nc2ccc3c(c2)OCO3)CC1	MIC90	Inosine monophosphate dehydrogenase-resistant	-	-	SRMV2.6	resazurin	-	>100 µM
Clc1ccc(Oc2cccc(CNc3ncnc4ccccc34)c2)cc1	MIC50	-	-	-	H37Rv	luminescence	-	>50 µM
CC(C)(C)O/N=C/c1cc(NC(=S)c2ccccc2)ccc1Cl	MIC bound	-	-	-	H37Rv	BACTEC	-	≤12.5 µg/mL
Cc1cccc(Cl)c1NC(=O)N1CCN(S(=O)(=O)c2cccc3cnccc23)CC1	MIC90	Inosine monophosphate dehydrogenase-resistant	-	-	SRMV2.6	resazurin	-	>250 µM
CCN1C(C#N)=C(C#N)N=C(c2cccs2)[C@@H]1/C=C/c1ccccc1	MIC	-	-	-	H37Rv	broth dilution / visual reading	-	12.5 µg/mL
O=C(CCl)SCC1CS1	MIC	-	-	-	H37Rv	-	-	25 µg/mL
CCSN(SCC)C(=S)c1ncnc(N(C)O)c1[N+](=O)[O-]	MBC	-	-	-	-	-	-	10.42 µg/mL
CCN(CC)CCNc1ccc(CO)c2sc3ccccc3c(=O)c12	MIC bound	-	-	-	H37Rv	BACTEC	-	>12.8 µg/mL
CC(C)=CCC/C(C)=C/CNc1ncnc2cc(F)ccc12	MIC50	-	-	-	H37Rv	luminescence	-	>20 µM
Cn1nc(-c2ccccc2NC(=O)C(F)(F)F)c(=O)n(C)c1=S	MIC bound	-	-	-	H37Rv	BACTEC	-	>12.5 µg/mL
N#Cc1ccc(Oc2ccc(Nc3ncnc4ccccc34)cc2)nc1	MIC50	-	-	-	H37Rv	luminescence	-	25 µM
CCCCCCCOc1ccccc1NC(=O)OCCN1CCOCC1	MIC	-	-	-	My 331/88	-	-	62.5 µM
Cc1c[nH]c2ccc([N+](=O)[O-])cc12	MIC90	-	-	-	H37Rv	resazurin	-	>100 µM
COc1cc(C=Nc2ccc(C)c(Cl)c2)ccc1OC(=O)c1ccccc1	inhibition	-	12.5 µg/mL	-	H37Rv	BACTEC	-	0%
CC(C)C[C@@H]1NC(=O)[C@H](Cc2c[nH]c3ccccc23)NC(=O)[C@@H](CCCN)NC(=O)[C@@H](CCCN)NC(=O)[C@H](C(C)C)NC(=O)[C@@H](CC(C)C)NC1=O	MIC100	-	-	-	H37Rv	broth dilution / resazurin	-	2.5 µM
CCCCCCCCCOc1ccc(NC(=O)OCCN2CCCCC2)cc1	MIC	-	-	-	My 331/88	-	-	8 µM
CCCCS(=O)(=O)Nc1ccc2[nH]c(C(=O)NCc3cccc(Cl)c3)c(C)c2c1	MIC90	-	-	-	H37Rv	resazurin	-	>100 µM
FC(F)(F)Oc1ccc(Nc2ncnc3ccsc23)cc1	MIC50	-	-	-	H37Rv	luminescence	-	>50 µM
N/C(=N\Nc1c(O)[nH]c2ccccc12)N[N+](=O)[O-]	MIC bound	-	-	-	H37Rv	BACTEC	-	>12.5 µg/mL
FC(F)(F)c1ccc(N2CCC3(CCN(c4ccc(Nc5ncnc6ccccc56)cc4)CC3)CC2)cc1	MIC50	-	-	-	H37Rv	luminescence	-	>50 µM
CCCCCOc1ccc(NC(=O)OCCN(C)C)cc1	MIC	-	-	-	My 331/88	-	-	32 µM
CC(C)C[C@@H]1NC(=O)[C@H](C)NC(=O)[C@@H](CCCN)NC(=O)[C@H](CC(N)=O)NC(=O)[C@H](C(C)C)NC(=O)[C@@H](CC(C)C)NC1=O	MIC100	-	-	-	H37Rv	broth dilution / resazurin	-	>80 µM
CCCCS(=O)(=O)Nc1ccc2[nH]c(C#N)c(C)c2c1	MIC90	V123A DG167-resistant	-	-	DRM167 16x3	resazurin	-	100 µM
NCC(=O)c1ccc2oc3ccccc3c2c1	inhibition	-	12.5 µg/mL	-	H37Rv	BACTEC	-	64%
CCCCCCCCCOc1cccc(NC(=O)OCCN(C)C)c1	MIC	-	-	-	My 331/88	-	-	8 µM
CCOC(=O)C(NC(=O)c1cccc(Cl)c1)(N1CCN(c2cc3c(cc2F)c(=O)c(C(=O)O)cn3C2CC2)CC1)C(F)(F)F	MIC	-	-	-	H37Rv	-	VERO	0.78 µg/mL
c1ccc(CCNc2ncnc3ccsc23)cc1	MIC50	-	-	-	H37Rv	luminescence	-	>50 µM
O=C(OCC(S)CS)c1ccccc1Cl	MIC	-	-	-	H37Rv	-	-	25 µg/mL
Fc1ccc2c(Nc3ccc(Oc4ccc(Cl)c(Cl)c4)cc3)ncnc2c1	MIC50	-	-	-	H37Rv	luminescence	-	>20 µM
COc1cccc(CC(=O)N2CCN(S(=O)(=O)c3cccc4cnccc34)CC2)c1	MIC90	Inosine monophosphate dehydrogenase-resistant	-	-	SRMV2.6	resazurin	-	>250 µM
CSC(SC)=C(C#N)C(=O)Nc1ccc(Cl)cc1	inhibition	-	12.5 µg/mL	-	H37Rv	BACTEC	-	0%
CC(C)(C)OC(=O)N1CCC2(CC1)CCN(c1ncnc3ccccc13)CC2	MIC50	-	-	-	H37Rv	luminescence	-	>10 µM
Nc1c(C(=O)O)[nH]c(=O)[nH]c1=O	MIC bound	-	-	-	H37Rv	BACTEC	-	>12.5 µg/mL
C/C=C(/C)C(=O)OC1CC(C)(C)CC2C3=CCC4C5(C)CC[C@H](O)C(C)(C)C5CC[C@@]4(C)[C@]3(C)CC[C@@]12C(=O)O	MIC	-	-	-	H37Rv (streptomycin-resistant)	-	-	50 µg/mL
Cc1c(Cl)c2ccc(N(C)C)cc2[nH]c1=O	inhibition	-	12.5 µg/mL	-	H37Rv	BACTEC	-	73%
O=C(Cc1ccc(F)cc1)N1CCN(S(=O)(=O)c2cccc3cnccc23)CC1	MIC90	Inosine monophosphate dehydrogenase-resistant	-	-	SRMV2.6	resazurin	-	>100 µM
NNC(=O)c1cccc(N)c1C(=O)NN	inhibition	-	12.5 µg/mL	-	H37Rv	BACTEC	-	20%
CCCCS(=O)(=O)Nc1ccc2[nH]c(C(=O)NCc3ccccc3C)c(C)c2c1	MIC90	-	-	-	H37Rv	resazurin	-	100 µM

Percent inhibition refers to the dose given; in toxicity tests it is the harm to the cells. An empty or dashed field is not shown. ECn is the concentration giving n% inhibition of infection, replication or growth. MIC bound: limit read from a one-dose screen. Neighbouring rows are from separate reports.